# Results reported in PubChem BioAssay AID488895 (Broad Institute, 2010).
# The entries are a selection whose mix differs from that of the whole data set. Calls of active or inactive are those of the source.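 The calls were made as follows: active = mean replicate inhibition at least 50% and at least half of replicates individually reaching 50%; inconclusive = only one of the two criteria met; inactive = neither criterion met.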
# Assay: E. coli Tat export inhibitors, primary screen, MC4100, TorA-mCherry reporter, fluorescence, single point (AID 488895);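 also: exported cargo escapes ClpAP degradation while cytoplasmic cargo is degraded and loses fluorescence; 0% = median of neutral control wells and 100% = median of NaSCN control wells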
# Conditions: at 10 µM, active compounds read high
row,SMILES,inhibition
1,O=C(NCC1(N2CCCCC2)CCCCC1)c1ccc(OC(F)F)cc1,inactive: -5.78%
2,CCN1CCC(Nc2ccc(Cl)cc2)CC1,inactive: 0.578%
3,N#CC1(Nc2ccccc2)CCN(CCc2ccccc2)CC1,inactive: -7.31%
4,O=C(NCC1(N2CCCCC2)CCCCC1)c1cccc([N+](=O)[O-])c1,inactive: 5.32%
5,CSc1ccc(C(=O)NCC2(N3CCOCC3)CCCCC2)cc1,inactive: -6.04%
6,CN1CCC(Nc2cccc(F)c2)CC1,inactive: -11.3%
7,O=C(NCC1(N2CCCCC2)CCCCC1)c1cncc(Br)c1,inactive: -1.73%
8,CCCOc1ccc(C(=O)NCC2(N(C)C)CCCCC2)cc1OC,inactive: -8.26%
9,CC(C)c1ccc(NC2CCN(C(=O)OC(C)(C)C)CC2)cc1,inactive: 1.62%
10,COc1ccc(CN(CCCl)CCCl)cc1Cl,inactive: -1.77%
11,CN(C)c1cccc(C(=O)NCC2(N3CCCCC3)CCCCC2)c1,inactive: -5.28%
12,COc1cc(OC)c(C(=O)NCC2(N(C)C)CCCCC2)cc1OC,inactive: -12.1%
13,O=C(NCC1(N2CCOCC2)CCCCC1)c1cc(F)c(F)cc1Cl,inactive: -7.94%
14,CCOC(=O)N1CCC(Nc2ccc(C)cc2)CC1,inactive: 18%
15,N/C(=N\O)c1c(N)no[n+]1[O-],inactive: -2.22%
16,O=C(OC1CN2CCC1CC2)C1c2ccccc2C=Cc2ccccc21 (centres undefined),inactive: -4.6%
17,COc1cc(C(=O)NCC2(N3CCOCC3)CCCCC2)cc(OC)c1C,inactive: -2.62%
18,O=C(NCC1(N2CCOCC2)CCCCC1)c1cc(Br)ccc1Cl,inactive: 5.55%
19,COc1ccc(C(=O)NCC2(N3CCOCC3)CCCCC2)cc1OC,inactive: 8.09%
20,CN(C)C1(CNC(=O)c2cccc(C#N)c2)CCCCC1,inactive: 2.1%
21,c1ccc(CN2CCC(Nc3ccccc3)CC2)cc1,inactive: -0.16%
22,CCCN1CCC(Nc2cc(OC)cc(OC)c2)CC1,inactive: -0.145%

row,SMILES,inhibition
1,Cc1cc(N(CCCl)CCCl)ccc1C=O,inactive: 4.19%
2,N#Cc1ccc(C(=O)NCC2(N3CCCCC3)CCCCC2)cc1,inactive: 0.803%
3,CC(C)(C)OC(=O)N1CCC(N(C(=O)c2ccccc2)c2ccc(Cl)cc2)CC1,inactive: 21.1%
4,Cc1ccccc1NC1(C#N)CCN(Cc2ccccc2)CC1,inactive: -0.047%
5,CCN1CCC(Nc2cccc(F)c2)CC1,inactive: -5.57%
6,O=C(NCC1(N2CCCCC2)CCCCC1)c1ccco1,inactive: 4.13%
7,CN(C)c1ccc(C(=O)NCC2(N3CCCCC3)CCCCC2)cc1,inactive: -7.62%
8,Cn1c(=O)[nH]cc(N(CCCl)CCCl)c1=O,inactive: -5.33%
9,CC(=O)N(c1ccccc1)C1CCNCC1,inactive: -1.53%
10,COc1cc(OC)cc(C(=O)NCC2(N3CCCCC3)CCCCC2)c1,inactive: -5.42%
11,Cc1ccc(C(=O)NCC2(N3CCCCC3)CCCCC2)o1,inactive: 6.09%
12,Fc1ccccc1NC1CCN(Cc2ccccc2)CC1,inactive: -3.1%
13,Cc1ccc(NC2(C#N)CCN(Cc3ccccc3)CC2)cc1,inactive: 0.763%
14,COc1cc(OC)cc(C(=O)NCC2(N3CCOCC3)CCCCC2)c1,inactive: -1.14%
15,COc1cccc(C(=O)N(c2cc(C)cc(C)c2)C2CCN(C(=O)OC(C)(C)C)CC2)c1,inactive: -1.17%
16,CCC(CO)(C(=O)OC1CN2CCC1CC2)c1ccccc1 (centres undefined),inactive: 4.18%
17,CN1CCC(Nc2ccc(Cl)cc2)CC1,inactive: 1.36%
18,CCOc1ncccc1C(=O)NCC1(N2CCOCC2)CCCCC1,inactive: 2.02%
19,CN1CCC(Nc2ccc(F)c(Cl)c2)CC1,inactive: 29.5%
20,CC(C)(C)OC(=O)N1CCC(Nc2ccccc2)CC1,inactive: 9.12%
21,O=C(O)C1(Nc2ccccc2)CCN(Cc2ccccc2)CC1,inactive: -3.56%
22,CCCOc1ccc(C(=O)NCC2(N(C)C)CCCCC2)cc1,inactive: 20.2%
